# Experimental data taken from patent US12012411B2, “Viral replication inhibitors” (Katholieke Universiteit Leuven, priority 2011, dated 2024).
# Test system: DENV-2 NGC
# Experiment: Antiviral activity against DENV-2 NGC in Vero-B cells (viral RNA load by RT-qPCR)
# Type: cell-based, Dengue virus
# Conditions: DENV-2 in Vero-B cells (Table 3); ratio CC50 / EC50
row,SMILES,SI
1,COc1cccc(NC(C(=O)c2c[nH]c3ccccc23)c2cccc3ccnn23)c1 (stereo not drawn) [CPD-043],>440
2,COc1cccc(NC(C(=O)c2c[nH]c3cc(F)ccc23)c2ccccc2)c1 (stereo not drawn) [CPD-123],337
3,COc1cccc(NC(C(=O)c2c[nH]c3cnccc23)c2ccccc2)c1 (stereo not drawn) [CPD-200],24
4,COc1cncc(NC(C(=O)c2c[nH]c3c(CCO)cccc23)c2ccccc2)c1 (stereo not drawn) [CPD-364],55
5,COc1cccc(NC(C(=O)c2c[nH]c3ccncc23)c2ccccc2)c1 (stereo not drawn) [CPD-201],6
6,COc1cc(NC(C(=O)c2c[nH]c3c(C)cccc23)c2ccccc2)cc(OC)c1 (stereo not drawn) [CPD-337],3237
7,COc1cc(NC(C(=O)c2c[nH]c3ccccc23)c2ccccc2)ncn1 (stereo not drawn) [CPD-072],10
8,COc1cccc(NC(C(=O)c2c[nH]c3ccc(F)cc23)c2cccnc2)c1 (stereo not drawn) [CPD-151],>1443
9,COc1cccc(NC(C(=O)c2c[nH]c3ccccc23)c2ccc3nccnc3c2)c1 (stereo not drawn) [CPD-037],16
10,COc1cccc(NC(C(=O)c2c[nH]c3nc(C)ccc23)c2ccccc2)c1 (stereo not drawn) [CPD-225],>357
11,COc1cccc(NC(C(=O)c2c[nH]c3cc(Cl)ccc23)c2cn3ccccc3n2)c1 (stereo not drawn) [CPD-150],3956
12,COc1cc(CO)cc(NC(C(=O)c2c[nH]c3ccccc23)c2ccc(OC)nc2)c1 (stereo not drawn) [CPD-283],323
13,COc1cccc(NC(C(=O)c2c[nH]c3ccccc23)c2cccc(C#N)c2)c1 (stereo not drawn) [CPD-041],29
14,COc1cc(NC(C(=O)c2c[nH]c3ccccc23)c2cn3c(F)cccc3n2)ccn1 (stereo not drawn) [CPD-081],5
15,COc1cccc(NC(C(=O)c2c[nH]c3ccccc23)c2cnc(OC)nc2)c1 (stereo not drawn) [CPD-240],578
16,COc1cccc(N(C)C(C(=O)c2c[nH]c3ccccc23)c2ccccc2)c1 (stereo not drawn) [CPD-018],52
17,COc1cc(NC(C(=O)c2nn(C)c3ccccc23)c2ccccc2)cc(OCCO)c1 (stereo not drawn) [CPD-298],>278
18,COc1cccc(NC(C(=O)c2c[nH]c3cc(F)ccc23)c2cnc(OC)cn2)c1 (stereo not drawn) [CPD-297],668
19,COc1cccc(NC(C(=O)c2c[nH]c3ccccc23)c2cncnc2)c1 (stereo not drawn) [CPD-029],78
20,COc1cc(CO)cc(NC(C(=O)c2c[nH]c3ccccc23)c2cccnc2)c1 (stereo not drawn) [CPD-282],>490
21,"COc1cncc(NC(C(=O)c2c[nH]c3ccc(F)cc23)c2ccc(OC)nc2)c1 (single isomer, unassigned) [CPD-322]",2855
22,O=C(c1c[nH]c2ccccc12)C(Nc1cccc(OC(F)(F)F)c1)c1ccccc1 (stereo not drawn) [CPD-005],6

row,SMILES,SI
1,COCCn1cc(C(=O)C(Nc2cccc(OC)c2)c2ccccc2)c2ccccc21 (stereo not drawn) [CPD-136],>545
2,COc1cccc(NC(C(=O)c2nn(C)c3ccccc23)c2ccc(OC)nc2)c1 (stereo not drawn) [CPD-264],>244
3,COc1cc(NC(C(=O)c2cn(CCCO)c3ccccc23)c2ccccc2)cc(OC)c1 (stereo not drawn) [CPD-210],68
4,COc1ccc2[nH]cc(C(=O)C(Nc3ccnc(OC)c3)c3ccccc3)c2c1 (stereo not drawn) [CPD-078],9
5,COc1cccc(NC(C(=O)c2c[nH]c3cc(C)ccc23)c2ccccc2)c1 (stereo not drawn) [CPD-122],785
6,COc1cccc(NC(C(=O)c2c[nH]c3ccccc23)c2cc(C)no2)c1 (stereo not drawn) [CPD-102],105
7,COc1cccc(NC(C(=O)c2c[nH]c3c(OC)cccc23)c2ccccc2)c1 (stereo not drawn) [CPD-222],>1003
8,COc1cc(NC(C(=O)c2c[nH]c3ccccc23)c2ccccc2)ccc1C#N (stereo not drawn) [CPD-218],6
9,COc1cc(CO)cc(NC(C(=O)c2c[nH]c3ccccc23)c2ccc(F)nc2)c1 (stereo not drawn) [CPD-333],2078
10,COc1cccc(NC(C(=O)c2c[nH]c3ccccc23)c2ccc(C#N)c(F)c2)c1 (stereo not drawn) [CPD-132],235
11,COc1cccc(NC(C(=O)c2c[nH]c3ccc(F)cc23)c2cnc(OC)cn2)c1 (stereo not drawn) [CPD-295],679
12,COc1cccc(NC(C(=O)c2cn(S(=O)(=O)c3cn(C)cn3)c3ccccc23)c2ccccc2)c1 (stereo not drawn) [CPD-209],>89
13,COc1cc(CO)cc(NC(C(=O)c2c[nH]c3ccccc23)c2cc3ccccn3n2)c1 (stereo not drawn) [CPD-289],1150
14,COc1cc(CO)cc(NC(C(=O)c2c[nH]c3ccccc23)c2ccccc2)c1 (stereo not drawn) [CPD-262],1099
15,COc1cc(NC(C(=O)c2c[nH]c3cc(F)ccc23)c2ccccc2)ccn1 (stereo not drawn) [CPD-075],67
16,CCc1cccc(NC(C(=O)c2c[nH]c3ccccc23)c2ccccc2)c1 (stereo not drawn) [CPD-046],26
17,O=C(c1c[nH]c2ccccc12)C(Nc1ccnc(F)c1)c1ccccc1 (stereo not drawn) [CPD-207],4
18,COc1cccc(NC(C(=O)c2cccc3[nH]ccc23)c2ccccc2)c1 (stereo not drawn) [CPD-302],23
19,COc1cc(NC(C(=O)c2c[nH]c3ccc(CCO)cc23)c2ccccc2)cc(OC)c1 (stereo not drawn) [CPD-370],1152
20,CCOc1ccc(NC(C(=O)c2c[nH]c3ccccc23)c2ccccc2)cc1CO (stereo not drawn) [CPD-192],9
21,COc1nc(NC(C(=O)c2c[nH]c3ccccc23)c2ccccc2)ns1 (stereo not drawn) [CPD-070],27
22,O=C(c1c[nH]c2ccccc12)C(Nc1ccnc(O)c1)c1ccccc1 (stereo not drawn) [CPD-031],>2

row,SMILES,SI
1,NS(=O)(=O)c1cccc(NC(C(=O)c2c[nH]c3ccccc23)c2ccccc2)c1 (stereo not drawn) [CPD-187],18
2,COc1cc(NC(C(=O)c2c[nH]c3c(CCO)cccc23)c2ccc(F)cc2)cc(OC)c1 (stereo not drawn) [CPD-371],389
3,"COc1cc(NC(C(=O)c2c[nH]c3ccccc23)c2ccccc2)cc(OC)c1 (single isomer, unassigned) [CPD-326]",9127
4,O=C(c1c[nH]c2ccccc12)C(Nc1cccc(O)c1)c1ccccc1 (stereo not drawn) [CPD-366],293
5,COc1cc(NC(C(=O)c2cn(CCO)c3ccccc23)c2ccccc2)cc(OC)c1 (stereo not drawn) [CPD-148],594
6,COc1cc(NC(C(=O)c2c[nH]c3ccccc23)c2ccccc2)cnc1OC (stereo not drawn) [CPD-256],433
7,CCn1nccc1C(Nc1cccc(OC)c1)C(=O)c1c[nH]c2ccccc12 (stereo not drawn) [CPD-107],3
8,COc1cc(NC(C(=O)c2c[nH]c3ccccc23)c2ccccc2)nc(OC)n1 (stereo not drawn) [CPD-087],>161
9,COc1cccc(NC(C(=O)c2c[nH]c3ccc(Cl)cc23)c2ccccc2)c1 (stereo not drawn) [CPD-086],329
10,COc1cncc(NC(C(=O)c2c[nH]c3cc(F)ccc23)c2ccccc2)n1 (stereo not drawn) [CPD-287],>303
11,COc1cccc(NC(C(=O)c2c[nH]c3ccccc23)c2ccccc2)c1OC (stereo not drawn) [CPD-040],>30
12,COc1cccc(NC(C(=O)c2c[nH]c3ccccc23)c2cn3c(n2)COCC3)c1 (stereo not drawn) [CPD-080],>125
13,COc1cccc(NC(C(=O)c2c[nH]c3ccccc23)c2ccccc2)n1 (stereo not drawn) [CPD-277],54
14,COc1cccc(NC(C(=O)c2cn(CCO)c3ccc(F)cc23)c2ccccc2)c1 (stereo not drawn) [CPD-146],498
15,COc1cc(O)cc(NC(C(=O)c2c[nH]c3ccccc23)c2ccccc2)c1 (stereo not drawn) [CPD-359],501
16,"COc1cccc(NC(C(=O)c2c[nH]c3ccccc23)c2cc3ccccn3n2)c1 (single isomer, unassigned) [CPD-325]",731
17,O=C(c1c[nH]c2ccccc12)C(Nc1cccc(CO)c1)c1ccccc1 (stereo not drawn) [CPD-179],26
18,COc1cccc(NC(C(=O)c2c[nH]c3c(C)cccc23)c2ccccc2)c1 (stereo not drawn) [CPD-224],>2622
19,COc1cccc(NC(C(=O)c2cn(S(=O)(=O)C3CCNCC3)c3ccccc23)c2ccccc2)c1 (stereo not drawn) [CPD-217],44
20,COc1cccc(NC(C(=O)c2c[nH]c3ccc(S(=O)(=O)N(C)C)cc23)c2ccccc2)c1 (stereo not drawn) [CPD-129],>99
21,COc1cncc(NC(C(=O)c2c[nH]c3ccc(F)cc23)c2ccc(OC)nc2)c1 (stereo not drawn) [CPD-241],1531
22,CS(=O)(=O)c1cccc(NC(C(=O)c2c[nH]c3ccccc23)c2ccccc2)c1 (stereo not drawn) [CPD-044],10

row,SMILES,SI
1,COc1cccc(NC(C(=O)c2c[nH]c3ccccc23)c2c(F)cc(C#N)cc2F)c1 (stereo not drawn) [CPD-133],499
2,COc1cc(NC(C(=O)c2c[nH]c3ccccc23)c2cn3ccccc3n2)ccn1 (stereo not drawn) [CPD-064],8
3,COc1cc(CO)cc(NC(C(=O)c2c[nH]c3ccc(F)cc23)c2ccccc2)c1 (stereo not drawn) [CPD-296],605
4,COc1cccc(NC(C(=O)c2c[nH]c3cccc(OC)c23)c2ccccc2)c1 (stereo not drawn) [CPD-231],15
5,COc1cccc(NC(C(=O)c2nn(C)c3cc(C#N)ccc23)c2ccccc2)c1 (stereo not drawn) [CPD-286],>120
6,COc1cccc(NC(C(=O)c2c[nH]c3ccccc23)c2[nH]cnc2C)c1 (stereo not drawn) [CPD-125],>19
7,COc1cc(F)cc(NC(C(=O)c2c[nH]c3ccccc23)c2ccccc2)c1 (stereo not drawn) [CPD-015],1065
8,O=C(c1c[nH]c2ccccc12)C(Nc1ccc2[nH]c(=O)oc2c1)c1ccccc1 (stereo not drawn) [CPD-057],2
9,COc1cccc(NC(C(=O)c2c[nH]c3ccccc23)c2ccc(OC)nc2)c1 (stereo not drawn) [CPD-055],759
10,O=C(c1c[nH]c2ccccc12)C(NC1CCSc2ccccc21)c1ccccc1 (stereo not drawn) [CPD-191],5
11,COc1cccc(NC(C(=O)c2cn(C)c3ccccc23)c2cc(C)on2)c1 (stereo not drawn) [CPD-117],>37
12,COc1cccc(NC(C(=O)c2c[nH]c3ccc(F)cc23)c2ccc(OC)nc2)c1 (stereo not drawn) [CPD-154],778
13,COc1cccc(NC(C(=O)c2c[nH]c3ccccc23)c2cn3cc(F)ccc3n2)c1 (stereo not drawn) [CPD-110],127
14,COc1cccc(NC(C(=O)c2c[nH]c3ccc(C)cc23)c2ccccc2)c1 (stereo not drawn) [CPD-130],749
15,COc1cccc(NC(C(=O)c2c[nH]c3ccccc23)c2cn3ccccc3n2)c1 (stereo not drawn) [CPD-030],>1412
16,COc1cccc(NC(C(=O)c2c[nH]c3ccccc23)c2ccc(CO)cc2)c1 (stereo not drawn) [CPD-127],33
17,COc1cc(NC(C(=O)c2c[nH]c3ccccc23)c2ccccc2)ccc1F (stereo not drawn) [CPD-356],113
18,COc1cccc(NC(C(=O)c2nn(C)c3ccccc23)c2ccc(C#N)cc2)c1 (stereo not drawn) [CPD-260],>1681
19,CCOC(=O)CCCOc1cc(NC(C(=O)c2c[nH]c3ccccc23)c2ccccc2)cc(OC)c1 (stereo not drawn) [CPD-367],>2863
20,Cc1cc(NC(C(=O)c2c[nH]c3ccccc23)c2ccccc2)no1 (stereo not drawn) [CPD-022],6
21,COc1cccc(NC(C(=O)c2c[nH]c3cc(CO)ccc23)c2ccccc2)c1 (stereo not drawn) [CPD-140],24
